Measured values from several laboratories, pooled; numbers as filed in NIAID ChemDB.

Shared fields: cytotoxicity tests; cells: MT-4; endpoint: CC50

Lines come from different laboratories, so protocols vary. An empty or dashed field is not shown. CCn is the concentration with n% toxicity to the cells.

compound | method | result
CCc1c(Cc2cccc(Cc3nc(SC(C)CC)[nH]c(=O)c3CC)c2)nc(SC(C)CC)[nH]c1=O | MTT | 27 µM
CC1(C)NCCCn2c1nc(C(=O)NCc1ccc(F)cc1)c(O)c2=O | microscopy | >1 µM
N#Cc1cc2ccc(O[C@@H]3CCNC3)cc2n(-c2ccc([N+](=O)[O-])cc2)c1=O | - | >32 µM
O=C(O)[C@H]1O[C@@H](Oc2cc(O)c3c(=O)cc(-c4ccc(O)cc4)oc3c2)[C@H](O)[C@@H](O)[C@@H]1O | - | 0.32 µg/mL
COC1CSc2nc(Cc3ccccc3)c(C(C)C)c(=O)n21 | - | <100 µM
CCc1c(C(=O)c2cc(C)cc(C)c2)n(Cc2cc(C(F)(F)F)cc(C(F)(F)F)c2)c(=O)[nH]c1=O | MTT | >100 µg/mL
CCOCn1c(Sc2ccccc2)c(C)c(=O)[nH]c1=O | - | 215 µM
Cc1cc(C)c(-n2c(SCC(=O)Nc3ccccc3C)nc3cnccc32)c(C)c1 | MTT | 22 µM
Cc1cc(C)c(Oc2nc(N)nc(Nc3ccc(CN4CCOCC4)cc3)n2)c(C)c1 | MTT | ≥12.89 µM
C=CCOCn1c(Cc2cccc(Cc3[nH]c(=O)[nH]c(=O)c3CC)c2)c(CC)c(=O)[nH]c1=O | MTT | >100 µM
Cc1cc(C)cc(Oc2c(C(C)C)c(=O)[nH]c(=O)n2Cn2nnc3ccccc32)c1 | MTT | >100 µg/mL
CC(C)CCC[C@@H](C)[C@H]1CC[C@H]2[C@@H]3CC[C@H]4C[C@@H](CCC=C(c5cc(Cl)c(O)c(C(=O)O)c5)c5cc(Cl)c(O)c(C(=O)O)c5)CC[C@]4(C)[C@H]3CC[C@]12C | - | >300 µM
Cc1nc(CN2CCn3c(nc(C(=O)NCc4ccc(F)cc4)c(O)c3=O)C2(C)C)no1 | microscopy | >1 µM
CCOC(=O)C(CC)C(=O)Cc1cccc(Cc2[nH]c(=O)c(CC)c(O)c2CC)c1 | MTT | 100 µM
Cc1cc(C)c(-n2c(SCC(=O)Nc3ccccc3Cl)nc3cccnc32)c(C)c1 | MTT | 3.9 µM
CC(C)(C)[Si](C)(C)OC[C@H]1O[C@@H](n2cc(F)c(=O)[nH]c2=O)[C@H](O[Si](C)(C)C(C)(C)C)C12OS(=O)(=O)C=C2N | - | 5 µM
CC1(C)OS(=O)(=O)C=C1NCc1ccccc1 | - | >125 µg/mL
CCOCn1c(Cc2cccc(Cc3[nH]c(=O)[nH]c(=O)c3CC)c2)c(CC)c(=O)[nH]c1=O | MTT | >100 µM
COc1ncnc(NS(=O)(=O)c2ccc(N=C3C(=O)N(CN4CCOCC4)c4ccc(C)cc43)cc2)c1OC | - | 9.3 µg/mL
CCc1c(Cc2cccc3ccccc23)n2c(nc1=O)SCC2OCCO | - | >100 µM
CC(=O)c1ccc(NC(=O)CSc2nc3cccnc3n2-c2c(C)cc(C)cc2C)c(Br)c1 | MTT | 46 µM
Cc1c(Sc2cc(Cl)cc(Cl)c2)n(COCCO)c(=O)[nH]c1=O | - | 218 µM
CCc1c(Sc2cc(C)cc(C)c2)n(Cc2cc(F)cc(F)c2)c(=O)[nH]c1=O | MTT | >100 µg/mL
CC(C)(C)[Si](C)(C)OC[C@H]1O[C@@H](n2cc(C(F)(F)F)c(=O)[nH]c2=O)[C@H](O[Si](C)(C)C(C)(C)C)C12OS(=O)(=O)C=C2N | - | 14 µM
CC1CCN(CC(O)CN2C(=O)C3C4CCC(C(=O)C4)C3C2=O)CC1 | MTT | >100 µM
CCOC(CSc1nc(Cc2ccccc2)c(CC)c(=O)[nH]1)OCC | - | <100 µM
O=C(c1ccccc1Cl)C(O)NC(=S)Nc1ccccn1 | - | >400 µM
Nc1nc(NC2CC2)c2ncn([C@H]3CO[C@@H](CO)O3)c2n1 | MTT | >250 µM
CCc1c(Cc2cc(C)cc(C)c2)nc2n(c1=O)C(OC)CS2 | - | <100 µM
CC1(C)C(N)=CS(=O)(=O)N1Cc1cccc(Cl)c1 | - | >125 µg/mL
COc1ccccc1N1CCN(CCCN2C(=O)C3C4CCC(C(=O)C4)C3C2=O)CC1 | MTT | >100 µM
C=CCOCn1c(Cc2cccc(Cc3c(CC)c(=O)[nH]c(=O)n3COCC=C)c2)c(CC)c(=O)[nH]c1=O | MTT | >100 µM
Cc1cc(C#N)cc(C)c1Oc1ccnc(Nc2ccc(CN3CCC(NS(C)(=O)=O)CC3)cc2)n1 | MTT | 18.1 µM
Cc1cc(C)cc(Cc2c(I)c(=O)[nH]c(=O)n2COCc2ccccc2)c1 | XTT | 98.3 µM
Fc1ccccc1Nc1nnnn1-c1cccc(C(F)(F)F)c1 | MTT / absorbance | 50 µM
Cc1cc(C)c(-n2c(SCC(=O)Nc3ccc(C)cc3Br)nc3cnccc32)c(C)c1 | MTT | 5.9 µM
Cc1cn([C@H]2C[C@H](N=[N+]=[N-])[C@@H](CCO)O2)c(=O)[nH]c1=O | - | >200 µg/mL
O=C1CC2CCC1C1C(=O)N(CCCCN3CCN(Cc4ccccc4)CC3)C(=O)C21 | MTT | >100 µM
CCc1c(Sc2cc(C)cc(C)c2)n(Cc2ccccc2C#N)c(=O)[nH]c1=O | MTT | >100 µg/mL
COc1ncnc(NS(=O)(=O)c2ccc(N=C3C(=O)N(CN4CCCC4)c4ccc(C)cc43)cc2)c1OC | - | 22.6 µg/mL
Cc1cc(C)cc(Sc2c(C(C)C)c(=O)[nH]c(=O)n2Cc2nc3ccccc3o2)c1 | MTT | >100 µg/mL
CC1(Cc2ccccc2)OS(=O)(=O)C=C1N | - | >125 µg/mL
CC(=O)N[C@@H](CCC(N)=O)C(=O)N[C@@H](C)C(=O)N[C@@H](CC(C)C)[C@@H](O)CC(=O)N[C@H](C(=O)N[C@H](C(N)=O)C(C)C)C(C)C | - | 1200 µM
COc1ncnc(NS(=O)(=O)c2ccc(N=C3C(=O)N(CN(C)C)c4ccccc43)cc2)c1OC | - | 2.4 µg/mL
Cc1cc(C#N)cc(C)c1Oc1ccnc(Nc2ccc(CN3CCOCC3)cc2)n1 | MTT | 23 µM
CCc1nc(NCN2C(=O)C(=Nc3ccc(S(=O)(=O)Nc4ncnc(OC)c4OC)cc3)c3cc(C)ccc32)nc(N)c1-c1ccc(Cl)cc1 | - | 7.1 µg/mL
CC1(C)c2nc(C(=O)NCc3ccc(F)cc3)c(O)c(=O)n2CCN1Cc1cnccn1 | microscopy | >1 µM
CC(C)c1c(Cc2ccccc2)nc2n(c1=O)C(OCCO)CS2 | - | <100 µM
Cc1cc(-c2ccc(C#N)cc2)cc(C)c1Oc1ccnc(S(=O)(=O)CC(=O)NCc2ccc(Cl)cc2)n1 | MTT | 3.86 µM
CNc1nc(=O)n([C@@H]2O[C@H](CO[Si](C)(C)C(C)(C)C)C3(OS(=O)(=O)C=C3N)[C@H]2O[Si](C)(C)C(C)(C)C)cc1C | - | 26 µM
CCc1c(Oc2cc(C)cc(C)c2)n(Cc2cc(Br)cc(Br)c2)c(=O)[nH]c1=O | MTT | >100 µg/mL
CCc1c(Cc2ccccc2)n2c(nc1=O)SCC2CBr | - | >100 µM
N#Cc1cc2ccc(OC[C@H]3CCCN3)cc2n(-c2ccc([N+](=O)[O-])cc2)c1=O | - | >32 µM
CC1(C)C(N)=CS(=O)(=O)N1Cc1ccc(Cl)cc1 | - | 75 µg/mL
CCc1c(Cc2ccccc2)nc(SCC2OCCO2)[nH]c1=O | - | <100 µM
O=C1CSC(=Nc2cccc(C(F)(F)F)c2)N1c1ccc(Cl)cc1 | MTT / absorbance | >100 µM
CCc1nc(NCN2C(=O)C(=Nc3ccc(S(=O)(=O)Nc4ncnc(OC)c4OC)cc3)c3ccccc32)nc(N)c1-c1ccc(Cl)cc1 | - | 2.4 µg/mL
Cc1cc(C#N)cc(C)c1Oc1ccnc(S(=O)(=O)CC(=O)Nc2ccc(C#N)cc2)n1 | MTT | >6.01 µM
CN(C)c1ccn([C@@H]2O[C@H](CO[Si](C)(C)C(C)(C)C)C3(OS(=O)(=O)C=C3N)[C@H]2O[Si](C)(C)C(C)(C)C)c(=O)n1 | - | >166 µM
CSc1ccccc1CNC(=O)c1nc2n(c(=O)c1O)CN(C)C2(C)C | microscopy | >1 µM
CC(=O)O[C@@H]1C2[C@]3(CC[C@@]45C[C@@]46CC[C@H](OC(=O)c4ccccc4)C(C)(C)[C@@H]6CCC5[C@]3(C)[C@@H]1OC(C)=O)CO[C@@]1(C(C)(C)O)CC[C@]2(C)O1 | luminescence | >30 µM
CCOC(NC(=S)Nc1ccccn1)C(=O)c1ccc(Cl)cc1 | - | 210 µM
CCc1c(Cc2ccccc2)n2c(nc1=O)SCC2OCCO | - | >100 µM
COc1ccccc1N1CCN(CCCCN2C(=O)C3C4CCC(C(=O)C4)C3C2=O)CC1 | MTT | >100 µM
Cc1cc(C#N)cc(C)c1Oc1ccnc(Nc2ccc(CN3CCN(S(C)(=O)=O)CC3)cc2)n1 | MTT | 3.43 µM
Cc1cc(C)c(-n2c(SCC(=O)Nc3ccccc3[N+](=O)[O-])nc3cnccc32)c(C)c1 | MTT | 9.9 µM
Cc1cc(/C=C/C#N)cc(C)c1Oc1ccnc(S(=O)(=O)CC(=O)NCc2ccc(Br)cc2)n1 | MTT | 3.37 µM
CCOCn1c(Cc2cc(C)cc(C)c2)c(CC)c(=O)[nH]c1=O | - | >500 µM
C/C=C/C(=O)O[C@H]1CC[C@]23C[C@]24CC[C@]25CO[C@@]6(C(C)(C)O)CC[C@](C)(O6)C2[C@@H](OC(C)=O)[C@@H](OC(C)=O)[C@@]5(C)C4CC[C@H]3C1(C)C | luminescence | <5 µM
O=C1CSC(=Nc2cccc(C(F)(F)F)c2)N1c1cccc(Cl)c1 | MTT / absorbance | >100 µM
Cc1cc(C)c(-n2c(SCC(=O)Nc3ccc(C)cc3[N+](=O)[O-])nc3cccnc32)c(C)c1 | MTT | 144 µM
CNCCCOc1ccc2cc(C#N)c(=O)n(-c3ccc([N+](=O)[O-])cc3)c2c1 | - | 70.68 µM
Cc1cc(C#CCCO)cc(C)c1Oc1ccnc(Nc2ccc(C#N)cc2)n1 | MTT | 3.555 µM
O=C1CC2CCC1C1C(=O)N(CCCN3CCN(c4ccccc4O)CC3)C(=O)C21 | MTT | >100 µM
N#Cc1cc2c3c(ccc2n(-c2ccc([N+](=O)[O-])cc2)c1=O)OCO3 | - | >100 µM
O=C1CC2CCC1C1C(=O)N(CC(O)CN3CCCCC3)C(=O)C21 | MTT | >100 µM
Cc1cc(-c2ccc(C#N)cc2)cc(C)c1Oc1ccnc(S(=O)(=O)C(C)C(=O)NCc2ccc(Cl)cc2)n1 | MTT | 12.17 µM
Cc1cc(C)c(-n2c(SCC(=O)Nc3ccc(S(N)(=O)=O)cc3Br)nc3cnccc32)c(C)c1 | MTT | 9.7 µM
CC(=O)N[C@@H](CCC(N)=O)C(=O)N[C@@H](C)C(=O)N[C@@H](CC(C)C)[C@@H](O)CC(=O)N[C@H](C(N)=O)C(C)C | - | 850 µM
Cc1cc(/C=C/C#N)cc(C)c1Oc1ccnc(S(=O)(=O)CC(=O)NCc2ccc(Cl)cc2)n1 | MTT | 1.43 µM
Cc1cn([C@@H]2O[C@H](CO[Si](C)(C)C(C)(C)C)[C@@]3(OS(=O)(=O)C=C3N)[C@H]2O[Si](C)(C)C(C)(C)C)c(=O)nc1N(C)C | - | 62 µM
Cc1cc(C)c(-n2c(SCC(=O)Nc3ccc(C)cc3Br)nc3cccnc32)c(C)c1 | MTT | 0.99 µM
Cc1cc(/C=C/C#N)cc(C)c1Oc1ccnc(S(=O)(=O)CC(=O)NCCc2ccc(F)cc2)n1 | MTT | 55.53 µM
Cc1ccc(CNC(=O)c2nc3n(c(=O)c2O)CCNCC3N(C)C(=O)C(=O)N(C)C)cc1Cl | microscopy | >1 µM
COc1ncnc(NS(=O)(=O)c2ccc(N=C3C(=O)N(CN4CCNCC4)c4ccccc43)cc2)c1OC | - | 2.3 µg/mL
Cc1c(Sc2ccccc2)n(COCCF)c(=O)[nH]c1=O | - | 191 µM
Cc1cc(/C=C/C#N)cc(C)c1Oc1ccnc(S(=O)(=O)CC(=O)NCCc2ccc(Br)cc2)n1 | MTT | 39.23 µM

The first 9 rows once more:

compound | method | result
CCc1c(Cc2cccc(Cc3nc(SC(C)CC)[nH]c(=O)c3CC)c2)nc(SC(C)CC)[nH]c1=O | MTT | 27 µM
CC1(C)NCCCn2c1nc(C(=O)NCc1ccc(F)cc1)c(O)c2=O | microscopy | >1 µM
N#Cc1cc2ccc(O[C@@H]3CCNC3)cc2n(-c2ccc([N+](=O)[O-])cc2)c1=O | - | >32 µM
O=C(O)[C@H]1O[C@@H](Oc2cc(O)c3c(=O)cc(-c4ccc(O)cc4)oc3c2)[C@H](O)[C@@H](O)[C@@H]1O | - | 0.32 µg/mL
COC1CSc2nc(Cc3ccccc3)c(C(C)C)c(=O)n21 | - | <100 µM
CCc1c(C(=O)c2cc(C)cc(C)c2)n(Cc2cc(C(F)(F)F)cc(C(F)(F)F)c2)c(=O)[nH]c1=O | MTT | >100 µg/mL
CCOCn1c(Sc2ccccc2)c(C)c(=O)[nH]c1=O | - | 215 µM
Cc1cc(C)c(-n2c(SCC(=O)Nc3ccccc3C)nc3cnccc32)c(C)c1 | MTT | 22 µM
Cc1cc(C)c(Oc2nc(N)nc(Nc3ccc(CN4CCOCC4)cc3)n2)c(C)c1 | MTT | ≥12.89 µM